Anti-infective test results gathered from many reports (values: NIAID ChemDB through PubChem).

All rows: growth or infection tests; agent: Mycobacterium tuberculosis

Neighbouring rows are from separate reports. An empty or dashed field is not shown. MIC bound comes from a single tested concentration. ECn is the concentration giving n% inhibition of infection, replication or growth. MIC50, MIC90 and the like: level of inhibition, or share of isolates inhibited. Percent inhibition refers to the dose given; in toxicity tests it is the harm to the cells.

smiles,method,strain or isolate,dose,measure,result
Nc1ccc(C(=O)O)c(O)c1,-,RM22,-,MIC,4 µg/mL
CCCN1CCN(c2cc(=O)c3nc4c(oc3c2)c2c(=O)c3c(O)c(C)c5c(c34)=C(O)[C@@](C)(O/C=C/[C@H](OC)[C@@H](C)[C@@H](OC(C)=O)[C@H](C)[C@H](O)[C@H](C)[C@@H](O)[C@@H](C)/C=C/C=C(/C)C(=O)N2)O5)CC1,-,6 strains (rifampicin-resistant),-,MIC90,0.025 µg/mL
COC(=O)[C@@]12C3=NO[C@]1(C(=O)OC)C(O[Si](C)(C)C(C)(C)C)[C@H]1OC(C)(C)O[C@H]1[C@@H]2[C@@H](OCc1ccccc1)CC3,resazurin,H37Rv,6.25 µg/mL,inhibition,-20%
O=C(Nc1cccc2cccnc12)C(F)(F)F,-,H37Rv,6.25 µg/mL,inhibition,0%
c1ccc(/C(Cn2ccnc2)=N/OCc2ccc(-c3ccccc3)cc2)cc1,-,CIP103471,-,MIC,8 µg/mL
CCOC(=O)c1c(N)sc2sc(-c3ccc(C)cc3)cc12,-,H37Rv,-,MIC,4.9 µM
CN(CCc1ccccc1)Cc1c(CC2CCCCC2)[nH]c2ccnc(Cl)c12,resazurin,H37Rv,-,EC50,>50 µg/mL
CO[C@H]1/C=C/O[C@@]2(C)Oc3c(C)c(O)c4c(c3C2=O)C(=O)C=C(NC(=O)/C(C)=C\C=C\[C@H](C)[C@H](O)[C@@H](C)[C@@H](O)[C@@H](C)[C@H](OC(C)=O)[C@@H]1C)C4=O,-,H37RV ATCC9360,-,MIC,0.05 µg/mL
CCC(C)N1CCN(c2cc(=O)c3nc4c(oc3c2)c2c(=O)c3c(O)c(C)c5c(c34)=C(O)[C@@](C)(O/C=C/[C@H](OC)[C@@H](C)[C@@H](OC(C)=O)[C@H](C)[C@H](O)[C@H](C)[C@@H](O)[C@@H](C)/C=C/C=C(/C)C(=O)N2)O5)CC1,-,16 strains (rifampicin-susceptible),-,MIC50,0.025 µg/mL
NNC(=O)c1ccncc1,-,Rifampicin-sensitive (7 strains pooled),-,Mean MIC,>33 µg/mL
CO[C@H]1/C=C/O[C@@]2(C)Oc3c(C)c(O)c4c(O)c(c(/C=N/N5CCN(C)CC5)c(O)c4c3C2=O)NC(=O)/C(C)=C\C=C\[C@H](C)[C@H](O)[C@@H](C)[C@@H](O)[C@@H](C)[C@H](OC(C)=O)[C@@H]1C,agar / absorbance,H37Rv,-,MIC,0.5 µg/mL
O=[n+]1c2ccc(Cl)cc2n([O-])c2ccc(Cl)cc21,-,RMP-R,-,MIC,12.5 µg/mL
NNC(=O)c1ccncc1,-,RM22,-,MIC,16 µg/mL
Nc1ccc(Sc2ccc(O)cc2)c2ncccc12,-,H37Rv,-,MIC,40 µg/mL
Nc1ccc(-n2cc(C(=O)O)c(=O)c3cc(F)c(N4CCCCC4)cc32)c(F)c1,BACTEC,H37Rv,6.25 µg/mL,inhibition,95%
COc1ccc(/C=N/NC(=O)C(=O)N/N=C/c2ccc(OC)c(S(=O)(=O)O)c2)cc1S(=O)(=O)O,BACTEC,H37Rv,-,MIC bound,>12.5 µg/mL
Cc1ccc(-c2cc3c(C#N)c(N)sc3s2)cc1,-,H37Rv,-,MIC,23.1 µM
O=C(O)c1cc(=O)[nH]c(SCc2ccc(Cl)cc2Cl)n1,BACTEC,H37Rv,-,MIC bound,>12.5 µg/mL
CC(C)(C)c1ccc2cccc([N+](=O)[O-])c2n1,-,H37Rv,6.25 µg/mL,inhibition,12%
CC(C)(C)C1CCC(=NNC(=O)c2ccncc2)CC1,-,Rifampicin-resistant,-,MIC,0.1 µg/mL
CC(C)c1ccc(-c2cc3c(C#N)c(N)sc3s2)cc1,-,H37Rv,-,MIC,20.9 µM
CCOC(=O)CCC(NC(=O)c1ccc(Nc2nc3ccccc3nc2C(=O)OCC)s1)C(=O)OCC,resazurin,H37Rv,-,MIC bound,>6.25 µg/mL
O=C(c1ccc(S(=O)(=O)c2ccccc2)cc1)C(Cl)Cl,-,H37Rv,-,MIC,12.5 µg/mL
COc1cc([C@H]2Oc3c(OC)cc(/C=C/C=O)cc3[C@@H]2COC(C)=O)ccc1O,-,H37Rv (ATCC 27294),-,MIC,64 µg/mL
CCOC(=O)c1c(N)sc2sc(-c3ccccc3)cc12,-,H37Rv,-,MIC,20.6 µM
COc1ncccc1Nc1cc2nc3ccccc3n(-c3ccc(OC(F)(F)F)cc3)c-2cc1=NC1CCC(OC)CC1,fluorescence,H37Rv,-,MIC90,0.06 µg/mL
CO[C@H]1/C=C/O[C@@]2(C)Oc3c(C)c(O)c4c(O)c(c5c(c4c3C2=O)NC2(CCN(CC(C)C)CC2)N=5)=NC(=O)/C(C)=C\C=C\[C@H](C)[C@H](O)[C@@H](C)[C@@H](O)[C@@H](C)[C@H](OC(C)=O)[C@@H]1C,-,Strain 3 (INH-resistant),-,MIC,0.006 µg/mL
c1ccc(/C(Cn2ccnc2)=N/OCc2cccc3ccccc23)cc1,-,CIP103471,-,MIC,8 µg/mL
COc1ccccc1/C=N/NC(=O)c1ccncc1,-,-,-,MIC90,0.3 µg/mL
Clc1ccc(/C(Cn2ccnc2)=N/OCc2cccc3ccccc23)c(Cl)c1,-,CIP103471,-,MIC,8 µg/mL
O=[N+]([O-])c1cccc2ccc(C3CCCC3)nc12,-,H37Rv,-,MIC,>6.25 µg/mL
CCOc1nc(-c2ccccc2)cc(-c2ccc(N3CCOCC3)cc2)c1C#N,BACTEC,H37Rv,12.5 µg/mL,inhibition,79%
O=[N+]([O-])c1ccc(Sc2cccc(Cl)c2Cl)c2ncccc12,-,H37Rv,-,MIC,>200 µg/mL
C[C@@H]1CN(c2c(F)c(N)c3c(=O)c(C(=O)O)cn(C4CC4)c3c2F)C[C@H](C)N1,-,RM22,-,MIC,0.25 µg/mL
COc1c(C(C)=O)cc(N)c2nc(C(C)C)ccc12,-,H37Rv,-,MIC,>6.25 µg/mL
C/C(=N\Nc1ccccn1)c1ccccn1,BACTEC,H37Rv,-,MIC bound,>12.5 µg/mL
C[C@H]1COc2c(N3CC[C@H](N)C3)c(F)cc3c(=O)c(C(=O)O)cn1c23,-,Rifampicin-resistant (5 strains pooled),-,Mean MIC,9.4 µg/mL
COc1c2c(cc3c1C1Oc4c(ccc(O)c4CC=C(C)C)C1CO3)OC(C)(C)C=C2,BACTEC,H37Rv,-,MIC,≥12.5 µg/mL
CC1COc2c(N3CCN(C)CC3)c(F)cc3c(=O)c(C(=O)O)cn1c23,agar,SMI 10,-,MIC,8 µg/mL
CCc1ccccc1NC(=O)C(=O)CC(=O)c1sc(Nc2ccccc2)nc1C,resazurin,H37Rv,6.25 µg/mL,inhibition,22%
Cc1cc(C)c(Cn2cc(/C=N\N=C(/N)c3ccccn3)c3ccccc32)c(C)c1,-,H37RV (INH RMP OFL-S),-,MIC,128 µg/mL
Cc1c(Cl)ccc2c(C(=O)NN)cc(-c3ccc(Cl)cc3)nc12,BACTEC,H37Rv,12.5 µg/mL,inhibition,90%
Cc1ccc(Oc2ccc(N)c3cccnc23)cc1C,-,H37Rv,-,MIC,40 µg/mL
Clc1ccc(/C(Cn2ccnc2)=N\OCc2cccc3ccccc23)cc1,-,CIP103471,-,MIC,8 µg/mL
CC(=O)C1(C)C(=O)N(S(=O)(=O)c2ccc(C)cc2)C(=O)N1S(=O)(=O)c1ccc(C)cc1,BACTEC,H37Rv,-,MIC bound,>12.5 µg/mL
Cc1ccc(S(=O)(=O)c2ccc([N+](=O)[O-])c3cccnc23)cc1,-,H37Rv,-,MIC,40 µg/mL
C[C@H]1COc2c(N3CC[C@H](N(C)C)C3)c(F)cc3c(=O)c(C(=O)O)cn1c23,-,Rifampicin-resistant (5 strains pooled),-,Mean MIC,9.5 µg/mL
CCOC(=O)c1c(N)sc2sc(-c3cccc4ccccc34)cc12,-,H37Rv,-,MIC,1.1 µM
O=P1(c2ccccc2)Nc2cc(Cl)c(Cl)cc2N1,BACTEC,H37Rv,-,MIC bound,>12.5 µg/mL
CC[C@@H](CO)NCCN[C@@H](CC)CO,-,H37Rv,-,MIC,0.47 µg/mL
O=C1c2ccccc2C(O)(C#Cc2ccccc2)c2c1oc1ccc3ccccc3c21,BACTEC,H37Rv,-,MIC bound,>12.5 µg/mL
CC1COn2cc(C(=O)O)c(=O)c3cc(F)c(N4CCN(Cc5ccc6cccc(O)c6n5)CC4)c1c32,BACTEC,H37Rv,6.25 µg/mL,inhibition,98%
Nc1c(-c2ccccc2[N+](=O)[O-])nc2ccccn12,BACTEC,H37Rv,-,MIC bound,>12.5 µg/mL
N[C@@H]1CONC1=O,-,H37Rv,-,MIC,7.5 µg/mL
N/C(=N\N=C/c1cn(Cc2cccc(Br)c2)c2ccccc12)c1ccc2ccccc2n1,-,H37RV (INH RMP OFL-S),-,MIC,64 µg/mL
O=[N+]([O-])c1ccc(S(=O)(=O)c2nc3ccccc3[nH]2)c2ncccc12,-,H37Rv,-,MIC,40 µg/mL
Clc1ccc2nsnc2c1Cl,BACTEC,H37Rv,-,MIC bound,>6.25 µg/mL
O=C(CCl)c1ccc(Cc2ccc(C(=O)CCl)cc2)cc1,-,H37Rv,-,MIC,25 µg/mL
O=[N+]([O-])c1cccc2ccc(C3CCCCC3)nc12,-,Ethambutol-resistant,-,MIC,25 µg/mL
Nc1ccc(Sc2ccc(Cl)c(Cl)c2)c2ncccc12,-,H37Rv,-,MIC,1 µg/mL
O=C(CCl)c1ccc(CCc2ccccc2)cc1,-,H37Rv,-,MIC,50 µg/mL
Nc1ccc(S(=O)(=O)c2ccc(O)cc2)c2ncccc12,-,H37Rv,-,MIC,100 µg/mL
N/C(=N\N=C/c1cn(Cc2ccccc2Cl)c2ccccc12)c1ccc2ccccc2n1,-,H37RV (INH RMP OFL-S),-,MIC,>128 µg/mL
CC(=O)Cn1c(=O)oc2ccc([N+](=O)[O-])cc2c1=O,resazurin,H37Rv,-,MIC bound,>6.25 µg/mL
COc1c(N2CCNC(C)C2)c(F)cc2c(=O)c(C(=O)O)cn(C3CC3)c12,-,Rifampicin-resistant (5 strains pooled),-,Mean MIC,1.1 µg/mL
CCOC(=O)C/C(C)=N\NC(=O)c1ccncc1,-,-,-,MIC90,0.05 µg/mL
CN1CCN(c2cc3c(cc2F)c(=O)c(C(=O)O)cn3-c2ccc([N+](=O)[O-])cc2)CC1,BACTEC,H37Rv,6.25 µg/mL,inhibition,0%
Nc1ccc(Sc2ccccn2)c2ncccc12,-,H37Rv,-,MIC,100 µg/mL
O=C1CSc2nc3ccc(Cl)cc3c(=O)n21,BACTEC,H37Rv,-,MIC bound,>12.5 µg/mL
Cc1ccc(C)c(Oc2ccc(N)c3cccnc23)c1,-,H37Rv,-,MIC,40 µg/mL
COc1cc(/C=N/NC(=O)c2ccncc2)ccc1O,-,-,-,MIC90,0.15 µg/mL
O=C(c1ccc(Oc2ccc(C(=O)C(Br)Br)cc2)cc1)C(Br)Br,-,H37Rv,-,MIC,25 µg/mL
C[C@H]1COc2c(N3C[C@@H](N)C4(CCC4)C3)c(F)cc3c(=O)c(C(=O)O)cn1c23,-,Rifampicin-resistant (5 strains pooled),-,Mean MIC,1.1 µg/mL
O=C(CCl)c1ccc(Oc2ccc(C(=O)CCl)cc2)cc1,-,H37Rv,-,MIC,25 µg/mL
CN1CCN(c2cc3c(cc2F)c(=O)c(C(=O)O)cn3-c2ccc([N+](=O)[O-])cc2F)CC1,BACTEC,H37Rv,6.25 µg/mL,inhibition,0%
O=C(c1ccc(CCc2ccccc2)cc1)C(Br)Br,-,H37Rv,-,MIC,12.5 µg/mL
Nc1nnc2nc(CC(=O)c3cccc([N+](=O)[O-])c3)c(CC(=O)c3cccc([N+](=O)[O-])c3)nn12,BACTEC,H37Rv,12.5 µg/mL,inhibition,5%
N/C(=N\N=C/c1cn(Cc2ccccc2)c2ccccc12)c1ccccn1,-,H37RV (INH RMP OFL-S),-,MIC,8 µg/mL
C[C@H]1COc2c(N3C[C@@H]4CCCN[C@@H]4C3)c(F)cc3c(=O)c(C(=O)O)cn1c23,-,Rifampicin-resistant (5 strains pooled),-,Mean MIC,0.4 µg/mL
CO[C@H]1/C=C/O[C@@]2(C)Oc3c(C)c(O)c4c(O)c(c(/C=N/N5CCN(C/C=C/c6ccccc6)CC5)c(O)c4c3C2=O)NC(=O)/C(C)=C\C=C\[C@H](C)[C@H](O)[C@@H](C)[C@@H](O)[C@@H](C)[C@H](OC(C)=O)[C@@H]1C,-,2257,-,MBC,0.12 µg/mL
Clc1ccc(/C(Cn2ccnc2)=N\OCc2cccc3ccccc23)c(Cl)c1,-,CIP103471,-,MIC,8 µg/mL
COc1c(OCC=C(C)C)cc2c(c1O)c(=O)c1ccccc1n2C,resazurin,H37Rv,-,MIC bound,>6.25 µg/mL
Nc1cccc2cccnc12,-,H37Rv,6.25 µg/mL,inhibition,0%
CCCCCCCCC(=O)N1c2ccccc2Sc2ccccc21,BACTEC,H37Rv,12.5 µg/mL,inhibition,-9%
N/C(=N\N=C/c1cn(Cc2ccc(Cl)cc2Cl)c2ccccc12)c1ccc2ccccc2n1,-,H37RV (INH RMP OFL-S),-,MIC,32 µg/mL

9 of the rows above, restated:

| smiles | method | strain or isolate | dose | measure | result |
|---|---|---|---|---|---|
| CC(C)c1ccc(-c2cc3c(C#N)c(N)sc3s2)cc1 | - | H37Rv | - | MIC | 20.9 µM |
| COc1ccccc1/C=N/NC(=O)c1ccncc1 | - | - | - | MIC90 | 0.3 µg/mL |
| CC[C@@H](CO)NCCN[C@@H](CC)CO | - | H37Rv | - | MIC | 0.47 µg/mL |
| Clc1ccc(/C(Cn2ccnc2)=N\OCc2cccc3ccccc23)cc1 | - | CIP103471 | - | MIC | 8 µg/mL |
| CCOC(=O)c1c(N)sc2sc(-c3cccc4ccccc34)cc12 | - | H37Rv | - | MIC | 1.1 µM |
| Clc1ccc(/C(Cn2ccnc2)=N\OCc2cccc3ccccc23)c(Cl)c1 | - | CIP103471 | - | MIC | 8 µg/mL |
| C[C@H]1COc2c(N3CC[C@H](N(C)C)C3)c(F)cc3c(=O)c(C(=O)O)cn1c23 | - | Rifampicin-resistant (5 strains pooled) | - | Mean MIC | 9.5 µg/mL |
| CCCN1CCN(c2cc(=O)c3nc4c(oc3c2)c2c(=O)c3c(O)c(C)c5c(c34)=C(O)[C@@](C)(O/C=C/[C@H](OC)[C@@H](C)[C@@H](OC(C)=O)[C@H](C)[C@H](O)[C@H](C)[C@@H](O)[C@@H](C)/C=C/C=C(/C)C(=O)N2)O5)CC1 | - | 6 strains (rifampicin-resistant) | - | MIC90 | 0.025 µg/mL |
| Nc1nnc2nc(CC(=O)c3cccc([N+](=O)[O-])c3)c(CC(=O)c3cccc([N+](=O)[O-])c3)nn12 | BACTEC | H37Rv | 12.5 µg/mL | inhibition | 5% |